# Source: patent publication US20140010824A1 (priority 2012, published 2014)
# System: Yptb(P^−) ΔmrtAB pmrtA^+B*- flag
# Settings: Yptb(P^−) ΔmrtAB pmrtA^+B*- flag (point mutation in Walker A box of MrtB ATPase domain); overnight culture without shaking, 37° C.; average of six replicates
smiles,measurement,value
Cn1c2cccc(=O)c-2nc2ccccc21 [pyocyanin],minimum inhibitory concentration (MIC),2 µg/mL
